A mixed list of measured activities; the numbers were collected in NIAID ChemDB.

All rows: growth or infection tests; agent: Candida albicans; read-out: MIC

Rows are shuffled and stem from different studies. An empty or dashed field is not shown.

| compound | strain or isolate | read by | conditions | result |
|---|---|---|---|---|
| Cc1c(S(=O)(=O)c2ccccc2)[n+](=O)c2cc(Cl)ccc2n1[O-] | Clinical isolate 16 | - | - | 62.5 µg/mL |
| CCCCCCCCN[C@H]1C[C@H]2C(=O)NCCC[C@H](NC(=O)c3ccc(-c4ccc(-c5ccc(OCCCCC)cc5)cc4)cc3)C(=O)N[C@@H]([C@@H](C)O)C(=O)N3C[C@H](O)C[C@H]3C(=O)N[C@@H](CCc3ccc(O)cc3)C(=O)N[C@@H]([C@@H](C)O)C(=O)N2C1 | ATCC 10231 | - | - | 6.25 µg/mL |
| O[C@](Cn1cncn1)(Cn1cnc(/C=C/c2ccc(OCC(F)(F)C(F)F)cc2)n1)c1ccc(F)cc1F | Isolate 08-57 | - | - | 0.5 µg/mL |
| CNc1ccc(C(=O)CC(O)CCC(C)C2OC(=O)CC(O)CC(=O)CC(O)CC(O)CC(O)CC(O)CC3(O)CC(O)C(C(=O)N4CCN(CCO)CC4)C(CC(O[C@@H]4O[C@H](C)[C@@H](O)[C@H](NC(=O)CN(C)C)[C@@H]4O)/C=C/C=C/C=C/C=C\C=C/C=C/C=C/C2C)O3)cc1 | 73 | - | - | 0.03 µg/mL |
| N=C(N)c1ccc2nc(-c3ccc(-c4nc5ccc(C(=N)N)cc5[nH]4)[nH]3)[nH]c2c1 | Isolate 3022 fluconazole-resistant | - | - | 0.78 µg/mL |
| COC(=O)[C@H]1[C@@H]2C[C@@H](O[C@@H]3O[C@H](C)[C@@H](O)[C@H](N)[C@@H]3O)/C=C/C=C/C=C/C=C/C=C/C=C/C=C/[C@H](C)[C@@H](O)[C@H](C)[C@H](C)OC(=O)C[C@H](O)C[C@H](O)[C@@H](O)CC[C@H](O)C[C@H](O)C[C@](O)(C[C@@H]1O)O2 | 10 isolates | broth dilution | pH 6 | 2 µg/mL |
| CNc1ccc(C(=O)CC(O)CCC(C)C2OC(=O)CC(O)CC(=O)CC(O)CC(O)CC(O)CC(O)CC3(O)CC(O)C(C(=O)N4CCN(C)CC4)C(CC(O[C@@H]4O[C@H](C)[C@@H](O)[C@H](NC(=O)CN(C)C)[C@@H]4O)/C=C/C=C/C=C/C=C\C=C/C=C/C=C/C2C)O3)cc1 | 73 | - | - | 0.015 µg/mL |
| Cc1c(S(=O)(=O)c2ccccc2)[n+](=O)c2ccccc2n1[O-] | Clinical isolate 18 | - | - | 31.25 µg/mL |
| CCCCCOc1ccc(-c2ccc(-c3ccc(C(=O)N[C@H]4CCCNC(=O)C5C[C@H](NC(=O)NC)CN5C(=O)C(C(C)O)NC(=O)C(CCc5ccc(O)cc5)NC(=O)C5C[C@@H](O)CN5C(=O)C(C(C)O)NC4=O)cc3)cc2)cc1 | ATCC 10231 | - | - | 0.3 µg/mL |
| CCOc1cc2c(cc1F)n([O-])c(C)c(Cl)[n+]2=O | Clinical isolate 11 | - | - | 62.5 µg/mL |
| Clc1ccc(C(Cn2ccnc2)OC/C=C/c2ccccc2)c(Cl)c1 | PR1 | - | - | 4 µg/mL |
| CNc1ccc(C(=O)CC(O)CCC(C)C2OC(=O)CC(O)CC(=O)CC(O)CC(O)CC(O)CC(O)CC3(O)CC(O)C(C(=O)N4CCN(CCO)CC4)C(CC(O[C@@H]4O[C@H](C)[C@@H](O)[C@H](NC(=O)CCN5CCCCC5)[C@@H]4O)/C=C/C=C/C=C/C=C\C=C/C=C/C=C/C2C)O3)cc1 | 200 | - | - | 0.06 µg/mL |
| CC[C@@H]([C@H](C)O)n1ncn(-c2ccc(N3CCN(c4ccc(OC[C@@H]5CO[C@@](Cn6cncn6)(c6ccc(F)cc6F)C5)cc4)CC3)cc2)c1=O | 15 isolates | broth dilution | pH 5 | 0.03 µg/mL |
| c1ccc(-c2ccc(COC(Cn3ccnc3)c3ccccc3)cc2)cc1 | CDCB385 | - | - | 128 µg/mL |
| CCC(C)CC(C)CCCCCCCCC(=O)N[C@H]1C[C@@H](O)[C@H](NCCN)NC(=O)[C@@H]2[C@@H](O)CCN2C(=O)[C@H]([C@H](O)CCN)NC(=O)[C@H]([C@H](O)[C@@H](O)c2ccc(O)cc2)NC(=O)[C@@H]2C[C@@H](O)CN2C(=O)[C@H]([C@@H](C)O)NC1=O | 10 isolates | broth dilution | pH 4 | 0.06 µg/mL |
| Cc1c(O)cccc1C(=O)N[C@@H](CSc1ccccc1)[C@H](O)CN1C[C@H]2CCCC[C@H]2C[C@H]1C(=O)NC(C)(C)C | I70B | - | - | 64 µg/mL |
| CCC(C)n1ncn(-c2ccc(N3CCN(c4ccc(OC[C@H]5CO[C@](Cn6cncn6)(c6ccc(Cl)cc6Cl)O5)cc4)CC3)cc2)c1=O | Darlington | - | - | >4 µg/mL |
| Clc1ccccc1C(c1ccccc1)(c1ccccc1)n1ccnc1 | 10 isolates | broth dilution | pH 5 | 0.03 µg/mL |
| Cc1ccc(C(Cn2ccnc2)OCc2ccc(C(C)(C)C)cc2)cc1 | CA2 | - | - | >128 µg/mL |
| CCCCCOc1ccc(-c2ccc(-c3ccc(C(=O)N[C@H]4CCCNC(=O)C5C[C@H](F)N5C(=O)C(C(C)O)NC(=O)C(CCc5ccc(O)cc5)NC(=O)C5C[C@@H](O)CN5C(=O)C(C(C)O)NC4=O)cc3)cc2)cc1 | ATCC 10231 | - | - | 0.78 µg/mL |
| CNc1ccc(C(=O)CC(O)CCC(C)C2OC(=O)CC(O)CC(=O)CC(O)CC(O)CC(O)CC(O)CC3(O)CC(O)C(C(=O)N4CCN(CCO)CC4)C(CC(O[C@@H]4O[C@H](C)[C@@H](O)[C@H](NC(=O)CN5CCN(C)CC5)[C@@H]4O)/C=C/C=C/C=C/C=C\C=C/C=C/C=C/C2C)O3)cc1 | 73 | - | - | 0.03 µg/mL |
| Clc1ccc(C(Cn2ccnc2)OCc2cccc3ccccc23)cc1 | CA12 | - | - | 128 µg/mL |
| Cc1c(Sc2ccccc2)[n+](=O)c2cc(Cl)ccc2n1[O-] | Clinical isolate 20 | - | - | 15.6 µg/mL |
| Cc1ccc(C(Cn2ccnc2)OCc2ccc(-c3ccccc3)cc2)cc1 | 5M | - | - | 128 µg/mL |
| CCCCCOc1ccc(N(C)CCN(C)c2ccc(C(=O)N[C@H]3CCCNC(=O)C4C[C@H](N)CN4C(=O)C(C(C)O)NC(=O)C(CCc4ccc(O)cc4)NC(=O)C4C[C@@H](O)CN4C(=O)C(C(C)O)NC3=O)cc2)cc1 | ATCC 62376 | - | - | 1.56 µg/mL |
| CC(C)(C)c1ccc(COC(Cn2ccnc2)c2ccc(Cl)cc2)cc1 | CA12 | - | - | >128 µg/mL |
| CCCCCOc1ccc(-c2ccc(-c3ccc(C(=O)N[C@H]4CCCNC(=O)C5C[C@H](N)CN5C(=O)C(CCCCN)NC(=O)C(CCc5ccc(O)cc5)NC(=O)C5C[C@@H](O)CN5C(=O)C(C(C)O)NC4=O)cc3)cc2)cc1 | ATCC CCH442 | - | - | 0.2 µg/mL |
| Clc1ccc(C(Cn2ccnc2)OCc2ccc(-c3ccccc3)cc2)c(Cl)c1 | 3M | - | - | 128 µg/mL |
| CCCCCOc1ccc(-c2ccc(-c3ccc(C(=O)N[C@H]4CCCNC(=O)[C@H]5CCN5C(=O)C(C(C)O)NC(=O)C(CCc5ccc(O)cc5)NC(=O)C5C[C@@H](O)CN5C(=O)C(C(C)O)NC4=O)cc3)cc2)cc1 | ATCC 10231 | - | - | >100 µg/mL |

A second listing of 2 rows from above:

Cc1c(O)cccc1C(=O)N[C@@H](CSc1ccccc1)[C@H](O)CN1C[C@H]2CCCC[C@H]2C[C@H]1C(=O)NC(C)(C)C ; strain or isolate: I70B ; result: 64 µg/mL
CCCCCOc1ccc(-c2ccc(-c3ccc(C(=O)N[C@H]4CCCNC(=O)C5C[C@H](F)N5C(=O)C(C(C)O)NC(=O)C(CCc5ccc(O)cc5)NC(=O)C5C[C@@H](O)CN5C(=O)C(C(C)O)NC4=O)cc3)cc2)cc1 ; strain or isolate: ATCC 10231 ; result: 0.78 µg/mL